Laboratory results: ChEMBL document CHEMBL3124921, “Discovery of nitropyridine derivatives as potent HIV-1 non-nucleoside reverse transcriptase inhibitors via a structure-based core refining approach” (Eur J Med Chem, 2014)

Biological target: Human immunodeficiency virus type 1 reverse transcriptase (Human immunodeficiency virus 1, UniProt Q72547)
Test: Inhibition of wild type HIV-1 reverse transcriptase using […] as template/primer assessed as inhibition of biotin-dUTP incorporation after 1 hr by microtiter plate ELISA reader analysis

IC50: 6.5 µM
SMILES: Cc1cc(C#N)cc(C)c1Oc1nc(Nc2ccc(C#N)cc2)nc(N)c1Br [ETRAVIRINE]
